Library screen at single concentrations

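Phenotypic screen: M. tuberculosis growth, cholesterol and DPPC medium, 4 days; the read-out is not stated. Concentration: 50 µM. Higher reads as more growth inhibition (inferred: compounds with an IC50 in retests scored well above the rest). Size under these conditions: about 69,000 compounds, about 370 of them at 50% or above in at least one test.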

Results are given as percent effect.
The controls that fix the scale are not given in the record; negative values are as filed.
This is part of a subset picked to be rich in strong results.
Two or more numbers in one place are separate tests of the same structure; such repeats can differ widely.

structure	percent effect
NC(=O)C1CCN(C(=O)NCc2ccc3c(c2)OCCO3)CC1	-12.44
Cc1cc(=O)[nH]c(-n2nc(C3CC3)cc2N)n1	43.31
NCC(c1ccccc1)N1CCc2sccc2C1 (configuration not stated)	11.32
Cc1cc(N2CCN(C(=O)Cc3ccc4c(c3)OCO4)CC2)cc(C)n1	82.53
CCCOc1ccc2c(c1)OCC(C(=O)NC(C)Cn1cccn1)=C2 (configuration not stated)	7.228
O=C(NCCCN1CCOCC1)c1ccc(-n2ccc3ccccc32)s1	-20.98
CN1CCN(C(=O)CCc2cc(Br)cs2)CC1	27.19 & 32.71
COCCC1(CNC(=O)NCC2CCCN(C)C2)CCCC1 (configuration not stated)	-5.07
Cc1ccc(N2CCCC3(CCCC(=O)N3)C2)nn1.O=C(O)C(F)(F)F (configuration not stated)	13.95
CN(Cc1ccc(Cl)s1)C(=O)Cn1nc(-c2ccc(F)cc2)oc1=O	93.38
CC(C)=CCCC(C)(O)c1cc(C(N)=O)no1 (configuration not stated)	12.56
CCN(Cc1cnn(C)c1)C[C@H]1CC[C@@H](Cc2ccc(CO)cc2)O1	-8.933
Cc1ccccc1CSc1nc(N)cc(N2CCOCC(CO)C2)n1 (configuration not stated)	-29.68
COc1cnc(C2(O)CCN(C(=O)c3ccccn3)CC2)c(OC)n1	9.315
CCn1cc(CNc2ccc(N(C)CCOC)cn2)cn1	-21.51
Cc1cc(N2CCC(CO)(CC3CCCCO3)CC2)c2ccccc2n1 (configuration not stated)	13.69
O=S(=O)(NCC1CCOC1)N1CCc2ccccc2C1 (configuration not stated)	-20.8
CN1CCN(C(=O)CC2CCN(CCc3ccccn3)CC2)CC1	-4.162
O=C(CC1CCc2ccccc21)NC1(C(=O)O)CCCC1 (configuration not stated)	4.767
COc1ccc(CC(C)Nc2cccc(SC)c2)cc1 (configuration not stated)	60.45
COCCN1CCC(c2nc3ccccc3[nH]2)CC1	-7.608
Cc1ccc(S(=O)(=O)N2CCc3nc(C4CCNCC4)ncc3C2)cc1.Cl	16.59
COCCCN1CCCN(C(C)C(=O)Nc2ccnn2C(C)C)CC1 (configuration not stated)	2.937 & 9.082
CCN(C)C(=O)Nc1cc(F)c(OC)cc1F	-11.39
c1cncc(OC2CCN(CCn3cc4ccccc4n3)CC2)c1	3.083
O=C(NCC(F)F)c1ccc(S(=O)(=O)N2CCCC(O)C2)cc1 (configuration not stated)	23.56
Cc1noc(CNC(=O)NCCc2ccc(Cl)cc2)n1	-8.119
CCc1cnc(N)nc1NC(C)c1cnn(C)c1 (configuration not stated)	-16.22
CO[C@@H]1CCN(c2nnc(C)s2)C[C@@H]1Cc1ccccc1.O=C(O)C(F)(F)F	49.55
CN(Cc1cnn(C)c1)C(=O)NCc1cc(Br)cs1	0.468
Cc1nc(C2CCCN2Cc2cc(Cl)c3c(c2)OCCCO3)no1 (configuration not stated)	45.56
COc1ccnc(NC(Cc2ccccc2)C(N)=O)n1 (configuration not stated)	-4.487
COCCN1CCN(C(C)C(=O)Nc2ccnn2C(C)C)CC1 (configuration not stated)	53.27 & 16.43
CN(C)c1cc2c(nn1)CCN(C(=O)c1cc3ccccc3[nH]c1=O)C2	77.94
CC(CO)NC(=O)Nc1ccc(CC#N)cc1 (configuration not stated)	6.282
CC(=O)c1ccc(C(=O)Nc2ccnc(N(C)C)n2)cc1	54.97
COc1ccc(C[C@H]2CN(C(=O)c3ccc(C)nc3)CC[C@@H]2OC)cc1.O=C(O)C(F)(F)F	4.109
Cc1nc(NCCSc2ccccn2)c2c(C)noc2n1	-3.762
CC(C)(C)OC(=O)N1CCC(NC2CC2)CC1	5.466
CN(Cc1cccc(-n2cccn2)c1)Cc1cccs1	13.67 & 28.62
O=C(O)C(F)(F)F.[H][C@@]12CN(CC(C)C)C[C@]1([H])C(=O)N(CC)C21CCN(S(C)(=O)=O)CC1	-7.585 & 71.79
Cc1cc(-c2cnc(NCc3ccncc3)nc2C(C)C)on1	18.3
CC(C)n1ccnc1CN1CCCN(C(=O)CC2C=CCC2)CC1 (configuration not stated)	-7.486
c1cc(CN2CCOC3(CCCC3)C2)no1	5.224
O=C(c1csc2nc(-c3ccc(Cl)cc3)cn12)N1CCCC(CO)C1 (configuration not stated)	2.085
COc1cc(CN2CCCC2)ccc1OC12CCCN(CC1)C2 (configuration not stated)	-13.04
CCN(Cc1cnn(C)c1)C[C@H]1CC[C@@H](Cc2cccc(C#N)c2)O1	-6.09
CC(O)CNc1nc(-c2cccnc2)nc2c1CCC2 (configuration not stated)	18.91
CCC1CN(CCCNS(C)(=O)=O)c2ccccc2O1 (configuration not stated)	-7.207
CCC[C@H]1CN(Cc2ccc3c(c2)OCCO3)C[C@@H]1NC(=O)COC	-0.4831 & -2.139
CC(C)C(C)N(C)Cc1nnc(-c2ccc(Br)s2)o1 (configuration not stated)	60.01 & 63.7
CNS(=O)(=O)Cc1ccccc1CNc1ccc(C#N)cn1	-45.11
O=C1NC2(CCCN(C(=O)CCn3cncn3)C2)Oc2ccccc21 (configuration not stated)	0.337 & -1.921
CC(C)c1ccc(CN2CCN(C(=O)c3cc(C4CC4)[nH]n3)CC2)cc1	-29.84
CC(O)CCN(C)S(=O)(=O)Cc1ccc(Cl)c(Cl)c1 (configuration not stated)	0.6483
COCCC(=O)N1CCC(Nc2ncc(Cl)cn2)CC1	9.644
CC(NCc1ccc(OCC(N)=O)cc1)c1ccc(Cl)c(Cl)c1.Cl (configuration not stated)	34.66
Cc1ccc(Oc2cc(F)ccc2O[C@@H]2CCC[C@@H](N)[C@H]2O)cc1	34.54
CN(C)c1nc2c(c(N3CCc4c(c(CO)nn4C)C3)n1)CCNC2	-62.01
COc1cccn(Cc2nnc(-c3cccnc3)o2)c1=O	-1.962
Cl.Nc1ccc(-c2cnc(C3CCCN3)cn2)cn1 (configuration not stated)	-0.1868 & 14.12
FC(F)(F)c1ccnc(N2CCC(c3nccn3CC3CC3)CC2)n1	55.96
Cc1cnn(CCNCC(O)c2ccc3c(c2)OCCO3)c1 (configuration not stated)	-5.602
CN(CCc1ccccc1)Cc1nc(Cc2cccc(F)c2)no1	54.55
COC1(CNC(=O)c2ccc(Cl)c(Cl)c2)CCSC1 (configuration not stated)	13.15
[H][C@]12CC[C@]([H])(CN(Cc3nnc(-c4ccccc4)o3)C1)N(CC1CCC1)C2	5.803
CC1=C(C(=O)N(C)Cc2noc3c2CCCC3)C(C)NC(=O)N1 (configuration not stated)	-15.59 & 0.5571
O=C1NCCCc2[nH]c(Cc3cccc(Cl)c3)nc21	-19.13
CCCC(C)CS(=O)(=O)NCc1cccnc1OC (configuration not stated)	5.162
CN(C)Cc1ccnc(NS(=O)(=O)CCc2ccccc2)c1	23.67
NC(=O)c1ccc(-n2ccnc2-c2cccc(O)c2)cc1N1CCCC1	74.73
CNC(=O)c1cccc(NC(=O)c2ccnc(N(C)C)c2)c1C	5.235
OCc1cc2ccccc2nc1N1CCCC1	14.41
CC(NCc1ccc(OCC(N)=O)cc1)c1ccc2c(c1)CCCC2 (configuration not stated)	43.81
CC(C)CCOCCNC(=O)Nc1cc(C(F)(F)F)c[nH]c1=O	30.82
CCc1ccc(C(=O)NC2CCc3nc(C)cn3C2)o1 (configuration not stated)	10.85
Cc1nc2c(Nc3ccc(C#N)cc3)nc(N)nc2n1C	-13.51
c1ccc(Cc2cccc(C3CCCN3C3CCOCC3)n2)cc1 (configuration not stated)	51.13 & 54.74
CC(C)[C@@H]1CN(C(=O)NCc2ccco2)C[C@H]1NS(=O)(=O)N(C)C	-22.59
O=C(c1ccc(Cn2cnnn2)cc1)N1CC[C@H](CO)[C@H](O)C1	-24.28
CCS(=O)(=O)CCNc1nc(C2CCCC2)nc2c1cnn2C	-4.161 & -12.86
CCCOc1cc(CNC(=O)Nc2ccc(C)cc2)ccn1	25.92
c1ccc(-c2nc(CCNCc3ccncc3)co2)cc1	-10.82 & 60.27
COc1cc(C(=O)N2CC(Oc3ccccc3Cl)C2)ccn1	18.72
CC(=O)N1CCCC(c2ccc(Cc3ccccc3)cn2)C1 (configuration not stated)	65.82
Cc1nn(CC(=O)N(C)Cc2nncn2C(C)C)c(=O)c2ccccc12	4.782
CCC1c2ccc(C)n2CCN1C(=O)Cn1cnc2sc(C)cc2c1=O (configuration not stated)	3.893 & 6.641
COc1ccc([C@@H]2C[C@H](NC(C)=O)C[C@H](Cc3ccccc3)O2)cn1	28.38 & 53.09
Cc1ccc(N(C)CC(O)COCc2ccccc2)c(C)c1 (configuration not stated)	13.99
c1cc(-c2n[nH]c(CNc3nnc(C4CC4)o3)n2)ccn1	-0.2663
COc1ccc(-c2nc(C3(NC(=O)OC(C)(C)C)CCC3)no2)cn1	7.478

6 of the entries, repeated:

{"structure": "CN(Cc1cnn(C)c1)C(=O)NCc1cc(Br)cs1", "percent effect": 0.468}
{"structure": "CN(C)c1nc2c(c(N3CCc4c(c(CO)nn4C)C3)n1)CCNC2", "percent effect": -62.01}
{"structure": "Cc1cc(N2CCN(C(=O)Cc3ccc4c(c3)OCO4)CC2)cc(C)n1", "percent effect": 82.53}
{"structure": "NCC(c1ccccc1)N1CCc2sccc2C1", "stereo": "configuration not stated", "percent effect": 11.32}
{"structure": "Cc1ccc(S(=O)(=O)N2CCc3nc(C4CCNCC4)ncc3C2)cc1.Cl", "percent effect": 16.59}
{"structure": "Cl.Nc1ccc(-c2cnc(C3CCCN3)cn2)cn1", "stereo": "configuration not stated", "percent effect": "-0.1868 & 14.12"}

Measurements from “University of Dundee, Small-Polar-MMV Screening Library” (2021), ChEMBL document CHEMBL3988442.